Assay results published in US20250009896A1, “SUPR[…] BASED VIRAL […] CAPTURE FOR PREVENTION AND THERAPY OF VIRAL INFECTION” (The Johns Hopkins University, priority 2023, published 2025).

Test system: SARS-CoV-2 PsV
Assay type: cell-based
Details: highest dose, pre-incubated with PsV 45 min, 293/ACE2/TMPRSS2 cells, luciferase

ACE2: Recombinant human angiotensin-converting enzyme 2 (ACE2) protein (carrier-free), R&D Systems
PsV infection inhibition: ~66%
